Anti-infective test results gathered from many reports (values: NIAID ChemDB through PubChem).

All rows: enzyme or target tests

ICn: concentration for n% inhibition. An empty or dashed field is not shown. Inhibition is in % at the dose shown (toxicity tests: loss of growth or viability). Conditions beyond the fields shown may differ between rows.

compound | agent | tested at | strain | endpoint | target | read by | result
O=C1C=CC(O)(c2cccc3ccccc23)C=C1 | Mycobacterium tuberculosis | - | H37Rv | IC50 | Thioredoxin reductase | - | 366 µM
CCOC(=O)C[C@@H](C1O[C@@H]2OC(C)(C)O[C@@H]2[C@H]1Oc1ccccc1)N(C(=O)Nc1cccc(C(C)=O)c1)C1CC1 | Mycobacterium aurum | 100 µM | - | inhibition | Alpha-glucosidase | - | 74.7%
O=C(Nc1ccccc1)N1CCc2c(c(-c3ccccc3)nn2Cc2cn(-c3ccc(Cl)cc3Cl)nn2)C1 | Mycobacterium tuberculosis | - | - | IC50 | Pantothenate synthetase | absorbance | 1.29 µM
O=C1C=CC(O)(c2nccs2)C=C1 | Mycobacterium tuberculosis | - | H37Rv | IC50 | Thioredoxin reductase | - | 84 µM
CCCCN(C(=O)Nc1ccc(F)cc1)[C@@H](CC(=O)OCC)C1O[C@@H]2OC(C)(C)O[C@@H]2[C@H]1Oc1ccccc1 | Mycobacterium aurum | 100 µM | - | inhibition | Alpha-glucosidase | - | 49.3%
O=C(Nc1ccccc1)N1CCc2c(c(-c3ccccc3)nn2Cc2cn(-c3cc(Cl)cc(Cl)c3)nn2)C1 | Mycobacterium tuberculosis | - | - | IC50 | Pantothenate synthetase | absorbance | 4.76 µM
Cc1cc(=O)n([C@@H]2O[C@H](CO)C3CN=C(N)NC32)c(=O)[nH]1 | Mycobacterium tuberculosis | - | - | Ki | Thymidine monophosphate kinase | - | 46 µM
CCCCCCCCCCCCN1C(=O)N(c2ccc(Cl)cc2)C(=O)C[C@H]1C1OC2OC(C)(C)OC2[C@H]1OC | Mycobacterium aurum | 100 µM | - | inhibition | Alpha-glucosidase | - | 5.7%
O=C1C=CC(O)(c2cc3ccccc3s2)C=C1 | Mycobacterium tuberculosis | - | H37Rv | IC50 | Thioredoxin reductase | - | 322 µM
O=C(Nc1ccccc1)N1CCc2c(c(-c3ccccc3)nn2Cc2cn(-c3ccccc3)nn2)C1 | Mycobacterium tuberculosis | - | - | IC50 | Pantothenate synthetase | absorbance | 2.13 µM
CCOC(=O)C[C@H](NC(=O)Nc1ccc(Cl)cc1)C1O[C@@H]2OC(C)(C)O[C@@H]2[C@H]1OC | Mycobacterium aurum | 100 µM | - | inhibition | Alpha-glucosidase | - | 47%
O=C(Nc1ccccc1)N1CCc2c(c(-c3ccccc3)nn2Cc2cn(-c3ccc(F)c(Cl)c3)nn2)C1 | Mycobacterium tuberculosis | - | - | IC50 | Pantothenate synthetase | absorbance | 6.43 µM
CC1(C)OC2OC([C@@H]3CC(=O)N(Cc4ccccc4)C(=O)N3C3CC3)[C@H](Oc3ccccc3)C2O1 | Mycobacterium aurum | 100 µM | - | inhibition | Alpha-glucosidase | - | 61.8%
Cc1cc(=O)n([C@@H]2O[C@H](CO)C3CNC(=S)OC32)c(=O)[nH]1 | Mycobacterium tuberculosis | - | - | Ki | Thymidine monophosphate kinase | - | 3.5 µM
COc1ccc(-c2cn(C[C@@H](O)COc3ccc4c(c3)OC3(CCN(C(=O)OC(C)(C)C)CC3)CC4=O)nn2)cc1 | Mycobacterium tuberculosis | 30 µM | - | inhibition | DNA gyrase | gel | 54%
O=C(Nc1ccccc1)N1CCc2c(c(-c3ccccc3)nn2Cc2cn(-c3ccccc3I)nn2)C1 | Mycobacterium tuberculosis | - | - | IC50 | Pantothenate synthetase | absorbance | 3.92 µM
COC1(c2nc3ccc(F)cc3s2)C=CC(=NS(=O)(=O)c2ccc(C)cc2)C=C1 | Mycobacterium tuberculosis | - | H37Rv | IC50 | Thioredoxin reductase | - | >1000 µM
CCCCCCCC/C=C\CCCCCCCCN(C(=O)NCc1ccccc1)[C@@H](CC(=O)OCC)C1O[C@@H]2OC(C)(C)O[C@@H]2[C@H]1Oc1ccccc1 | Mycobacterium aurum | 100 µM | - | inhibition | Alpha-glucosidase | - | 12.3%
O=C(Nc1ccccc1)N1CCc2c(c(-c3ccccc3)nn2Cc2cn(-c3ccc(F)cc3)nn2)C1 | Mycobacterium tuberculosis | - | - | IC50 | Pantothenate synthetase | absorbance | 3.41 µM
CCOC(=O)C[C@@H](C1O[C@@H]2OC(C)(C)O[C@@H]2[C@H]1OC)N(C(=O)NCc1ccccc1)C1CC1 | Mycobacterium aurum | 100 µM | - | inhibition | Alpha-glucosidase | - | 81.7%
COc1cccc(-n2cc(Cn3nc(-c4ccccc4)c4c3CCN(C(=O)Nc3ccccc3)C4)nn2)c1 | Mycobacterium tuberculosis | - | - | IC50 | Pantothenate synthetase | absorbance | 7.78 µM
Cc1cc(=O)n([C@@H]2O[C@H](CO)C3CNC(=O)NC32)c(=O)[nH]1 | Mycobacterium tuberculosis | - | - | Ki | Thymidine monophosphate kinase | - | 59 µM
O=c1[nH]c(=O)n([C@H]2C[C@H](O)[C@@H](CO)O2)cc1Br | Mycobacterium tuberculosis | - | - | Ki | Thymidylate kinase | - | 5 µM
O=C1CC2(CCCCC2)Oc2cc(OC[C@H](O)Cn3cc(-c4ccccc4)nn3)ccc21 | Mycobacterium tuberculosis | 30 µM | - | inhibition | DNA gyrase | gel | 68%
O=C1C=CC(O)(c2nc3ccccc3o2)C=C1 | Mycobacterium tuberculosis | - | H37Rv | IC50 | Thioredoxin reductase | - | 50 µM
C=CC(C)(C)c1c(OC)oc(-c2ccccc2)cc1=O | Mycobacterium tuberculosis | 500 µM | - | inhibition | MurE | absorbance | 77%
O=C(Nc1ccccc1)N1CCc2c(c(-c3ccccc3)nn2Cc2cn(-c3ccccc3Cl)nn2)C1 | Mycobacterium tuberculosis | - | - | IC50 | Pantothenate synthetase | absorbance | 2.78 µM
[2H]C([2H])([2H])OC(=O)N/C=C/CCCc1cc(O)c(C(=O)/C(C)=C/c2cnc(Oc3ccc(-c4ccccc4)cc3)s2)c(=O)o1 | Mycobacterium tuberculosis | - | - | IC50 | RNA polymerase | nucleotide incorporation / fluorescence | >6 µM
NNC(=O)c1ccncc1 | Mycobacterium tuberculosis | 1000 µM | H37Rv | inhibition | Isocitrate lyase | - | 50%
CC(=O)Nc1ccc(Nc2nc(-c3ccccn3)cs2)cc1 | Mycobacterium tuberculosis | 30 µM | - | inhibition | DNA gyrase | gel | 51%

For reference, 4 entries again:

compound | agent | tested at | strain | endpoint | target | read by | result
O=c1[nH]c(=O)n([C@H]2C[C@H](O)[C@@H](CO)O2)cc1Br | Mycobacterium tuberculosis | - | - | Ki | Thymidylate kinase | - | 5 µM
O=C(Nc1ccccc1)N1CCc2c(c(-c3ccccc3)nn2Cc2cn(-c3ccc(F)c(Cl)c3)nn2)C1 | Mycobacterium tuberculosis | - | - | IC50 | Pantothenate synthetase | absorbance | 6.43 µM
CCOC(=O)C[C@H](NC(=O)Nc1ccc(Cl)cc1)C1O[C@@H]2OC(C)(C)O[C@@H]2[C@H]1OC | Mycobacterium aurum | 100 µM | - | inhibition | Alpha-glucosidase | - | 47%
Cc1cc(=O)n([C@@H]2O[C@H](CO)C3CNC(=S)OC32)c(=O)[nH]1 | Mycobacterium tuberculosis | - | - | Ki | Thymidine monophosphate kinase | - | 3.5 µM